# Assay results taken from patent US20220089698A1, “ANTIBODIES THAT TARGET HIV GP120 AND METHODS OF USE” (published 2022).
# Changes are numbered by the printed parent chain.
# B1: Antibody A-1 (antibody, human IgG1, kappa)
# heavy: QVQLLQSGAAVTKPGASVRVSCEASGYNIRDYFIHWWRQAPGQGLQWVGWINPKTGQPNNPRQFQGRVSLTRHASWDFDTFSFYMDLKALRSDDTAVYFCARQRSDYWDFDVWGSGTQVTVSSASTKGPSVFPLAPSSKSTSGGTAALGCLVKDYFPEPVTVSWNSGALTSGVHTFPAVLQSSGLYSLSSVVTVPSSSLGTQTYICNVNHKPSNTKVDKKVEPKSCDKTHTCPPCPAPELLAGPDVFLFPPKPKDTLMISRTPEVTCVVVDVSHEDPEVKFNWYVDGVEVHNAKTKPREEQYNSTYRVVSVLTVLHQDWLNGKEYKCKVSNKALPLPEEKTISKAKGQPREPQVYTLPPSREEMTKNQVSLTCLVKGFYPSDIAVEWESNGQPENNYKTTPPVLDSDGSFFLYSKLTVDKSRWQQGNVFSCSVLHEALHSHYTQKSLSLSPGK
# light: not shown
# B2: 1.1.138-1 (antibody, human IgG1, kappa)
# heavy: B1 heavy
# light: not shown
# B3: 1.52.1-1 (antibody, human IgG1, kappa)
# heavy: B1 heavy with W76F
# light: not shown
# Key:
# Test in all cases: cell-based or functional assay
# [1] = molecular target: HIV envelope glycoprotein gp120 of virus VS003 (HIV-1)
# [2] = molecular target: HIV envelope glycoprotein gp120 of virus VS046 (HIV-1)
# [3] = molecular target: HIV envelope glycoprotein gp120 of virus VS001 (HIV-1)
# [4] = molecular target: HIV envelope glycoprotein gp120 of virus VS026 (HIV-1)
# [5] = molecular target: HIV envelope glycoprotein gp120 of virus VS052 (HIV-1)
# [6] = molecular target: HIV envelope glycoprotein gp120 of virus US657 (HIV-1)
# [7] = molecular target: HIV envelope glycoprotein gp120 of virus VS043 (HIV-1)
# [8] = molecular target: HIV envelope glycoprotein gp120 of virus VS004 (HIV-1)
# [9] = molecular target: HIV envelope glycoprotein gp120 of virus VS003 (HIV-1); remark: listed apart in the source
# [10] = molecular target: HIV envelope glycoprotein gp120 of virus VS046 (HIV-1); remark: listed apart in the source
# [11] = molecular target: HIV envelope glycoprotein gp120 of virus VS001 (HIV-1); remark: listed apart in the source
# [12] = molecular target: HIV envelope glycoprotein gp120 of virus VS026 (HIV-1); remark: listed apart in the source
# [13] = molecular target: HIV envelope glycoprotein gp120 of virus VS052 (HIV-1); remark: listed apart in the source
# [14] = molecular target: HIV envelope glycoprotein gp120 of virus US657 (HIV-1); remark: listed apart in the source
# [15] = molecular target: HIV envelope glycoprotein gp120 of virus VS043 (HIV-1); remark: listed apart in the source
# [16] = molecular target: HIV envelope glycoprotein gp120 of virus VS004 (HIV-1); remark: listed apart in the source
# [17] = molecular target: HIV envelope glycoprotein gp120 of virus VS002 (HIV-1)
# [18] = molecular target: HIV envelope glycoprotein gp120 of virus VS011 (HIV-1)
# [19] = molecular target: HIV envelope glycoprotein gp120 of virus VS017 (HIV-1)
# [20] = molecular target: HIV envelope glycoprotein gp120 of virus VS030 (HIV-1)
# [21] = molecular target: HIV envelope glycoprotein gp120 of virus VS032 (HIV-1)
# [22] = molecular target: HIV envelope glycoprotein gp120 of virus VS033 (HIV-1)
# [23] = molecular target: HIV envelope glycoprotein gp120 of virus VS034 (HIV-1)
# [24] = molecular target: HIV envelope glycoprotein gp120 of virus VS038 (HIV-1)
# [25] = molecular target: HIV envelope glycoprotein gp120 of virus VS039 (HIV-1)
# [26] = molecular target: HIV envelope glycoprotein gp120 of virus VS042 (HIV-1)
# [27] = molecular target: HIV envelope glycoprotein gp120 of virus VS044 (HIV-1)
# [28] = molecular target: HIV envelope glycoprotein gp120 of virus VS053 (HIV-1)
Binder,HIV neutralization IC50 [1],HIV neutralization IC50 [2],HIV neutralization IC50 [3],HIV neutralization IC50 [4],HIV neutralization IC50 [5],HIV neutralization IC50 [6],HIV neutralization IC50 [7],HIV neutralization IC50 [8],Avg. IC50 (HIV neutralization) [9],Avg. IC50 (HIV neutralization) [10],Avg. IC50 (HIV neutralization) [11],Avg. IC50 (HIV neutralization) [12],Avg. IC50 (HIV neutralization) [13],Avg. IC50 (HIV neutralization) [14],Avg. IC50 (HIV neutralization) [15],Avg. IC50 (HIV neutralization) [16],Avg. IC50 (HIV neutralization) [17],Avg. IC50 (HIV neutralization) [18],Avg. IC50 (HIV neutralization) [19],Avg. IC50 (HIV neutralization) [20],also measured
B1,0.03 µg/mL,0.03 µg/mL,0.08 µg/mL,0.26 µg/mL,0.38 µg/mL,0.86 µg/mL,1.47 µg/mL,3.42 µg/mL,0.027 µg/mL,0.029 µg/mL,0.08 µg/mL,0.259 µg/mL,0.381 µg/mL,0.864 µg/mL,1.47 µg/mL,3.42 µg/mL,0.024 µg/mL,0.147 µg/mL,0.443 µg/mL,1.61 µg/mL,Avg. IC50 (HIV neutralization) [21]: 0.256 µg/mL; Avg. IC50 (HIV neutralization) [22]: 0.207 µg/mL; Avg. IC50 (HIV neutralization) [23]: 0.358 µg/mL; Avg. IC50 (HIV neutralization) [24]: 0.21 µg/mL; Avg. IC50 (HIV neutralization) [25]: 0.121 µg/mL; Avg. IC50 (HIV neutralization) [26]: 3.17 µg/mL; Avg. IC50 (HIV neutralization) [27]: 0.312 µg/mL; Avg. IC50 (HIV neutralization) [28]: 0.53 µg/mL
B2,0.06 µg/mL,0.04 µg/mL,0.18 µg/mL,0.35 µg/mL,0.46 µg/mL,0.54 µg/mL,1.41 µg/mL,39.2 µg/mL,0.06 µg/mL,0.04 µg/mL,0.18 µg/mL,0.35 µg/mL,0.45 µg/mL,0.55 µg/mL,1.41 µg/mL,39.2 µg/mL,0.03 µg/mL,0.25 µg/mL,2.02 µg/mL,2.81 µg/mL,Avg. IC50 (HIV neutralization) [21]: 0.25 µg/mL; Avg. IC50 (HIV neutralization) [22]: 0.19 µg/mL; Avg. IC50 (HIV neutralization) [23]: 0.45 µg/mL; Avg. IC50 (HIV neutralization) [24]: 0.12 µg/mL; Avg. IC50 (HIV neutralization) [25]: 0.07 µg/mL; Avg. IC50 (HIV neutralization) [26]: 1.73 µg/mL; Avg. IC50 (HIV neutralization) [27]: 0.36 µg/mL; Avg. IC50 (HIV neutralization) [28]: 1.52 µg/mL
B3,0.05 µg/mL,0.06 µg/mL,0.21 µg/mL,0.48 µg/mL,0.54 µg/mL,0.69 µg/mL,1.39 µg/mL,9.9 µg/mL,0.04 µg/mL,0.05 µg/mL,0.21 µg/mL,0.48 µg/mL,0.54 µg/mL,0.44 µg/mL,1.39 µg/mL,9.9 µg/mL,0.05 µg/mL,0.33 µg/mL,3.01 µg/mL,4.86 µg/mL,Avg. IC50 (HIV neutralization) [21]: 0.27 µg/mL; Avg. IC50 (HIV neutralization) [22]: 0.27 µg/mL; Avg. IC50 (HIV neutralization) [23]: 0.28 µg/mL; Avg. IC50 (HIV neutralization) [24]: 0.4 µg/mL; Avg. IC50 (HIV neutralization) [25]: 0.17 µg/mL; Avg. IC50 (HIV neutralization) [26]: 4.54 µg/mL; Avg. IC50 (HIV neutralization) [27]: 0.16 µg/mL; Avg. IC50 (HIV neutralization) [28]: 1.07 µg/mL
